# According to patent publication US20220306729A1 (published 2022):
# T1: DENV1 EDIII, polyhistidine-AviTag, made in HEK-293-6E cells (Dengue virus 1 (NC_001477))
# T1 construct: also called EDIII of DENV1
# T1 chain: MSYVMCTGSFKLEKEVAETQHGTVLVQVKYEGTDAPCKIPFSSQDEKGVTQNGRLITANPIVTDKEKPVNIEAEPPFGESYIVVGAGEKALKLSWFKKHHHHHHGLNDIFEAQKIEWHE
# T2: WNV EDIII, polyhistidine-AviTag (West Nile virus)
# T2 chain: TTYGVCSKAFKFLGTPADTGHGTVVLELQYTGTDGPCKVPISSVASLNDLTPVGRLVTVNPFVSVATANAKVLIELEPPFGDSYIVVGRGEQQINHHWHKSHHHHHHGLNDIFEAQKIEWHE
# Experiments:
# [1] = molecular target: T1, DENV1 EDIII, polyhistidine-AviTag, made …; assay: ELISA on DENV1 EDIII (FIG. 3D)
# [2] = molecular target: T1, DENV1 EDIII, polyhistidine-AviTag, made …; assay: ELISA on EDIII (Table A)
# [3] = molecular target: T2, WNV EDIII, polyhistidine-AviTag; assay: ELISA on EDIII (Table A)
# [4] = molecular target: T3, YFV (Asibi strain) EDIII, polyhistidine-AviTag (Yellow fever virus, Asibi strain, UniProt Q6DV88 580-677); assay: cross-reactivity ELISA on EDIII proteins (refers to Examples 1 and 2)
# T3 construct: domain: EDIII
# [5] = molecular target: T4, DENV4 EDIII, polyhistidine-AviTag (Dengue virus 4, UniProt P09866 576-673); assay: as above
# T4 construct: domain: EDIII
# [6] = molecular target: T2, WNV EDIII, polyhistidine-AviTag; assay: as above
# [7] = molecular target: T5, DENV3 EDIII, polyhistidine-AviTag (Dengue virus 3, UniProt Q6YMS4 575-672); assay: as above
# T5 construct: domain: EDIII
# [8] = molecular target: T6, YFV (17D strain) EDIII, polyhistidine-AviTag (Yellow fever virus, 17D strain, UniProt P03314 580-677); assay: as above
# T6 construct: domain: EDIII
# [9] = molecular target: T7, DENV2 EDIII, polyhistidine-AviTag (Dengue virus 2, UniProt P29990 577-674); assay: as above
# T7 construct: domain: EDIII
binder,measurement,setting,value
"Z004 (MEX18_89) (antibody, V domains shown, also called biotin-Z004 (biotinylated form)) VH: EVQLLESGGGLVQPGGSLRLTCATSGFTFRDYAMSWVRQAPGKGLEWVSSYSGIDDSTYYADSVKGRFTISRDNSKSTLSLHMNSLRAEDSALYFCAKDRGPRGVGELFDSWGQGTLVTVSS VL: DIQMTQSPSTLSASVGDRVTITCRASQSISKWLAWYQQKPGKAPKLLIYTTSTLKSGVPSRFSGSGSGTEFTLTISSLQPDDFATYYCQHFYSVPWTFGQGTKVEIK",binding result,[1],binds
"Z062 (BRA112_70) (antibody, V domains shown) VH: EVQLVESGGGVVQPGRSLRLSCAASGFSFSSHAMYWVRQAPGKGLEWVAIVSYDGSTKNYADSVKGRFTISRDNSKNTIYLHLNSLRAEDTAVYFCAREVDGIYGYLHYWGQGTLVTVSS VL: EIVLTQSPATLSLSPGERATLSCRARQNVRNFLAWYQQKPGQAPRLLIYDASNRATDIPARFSGSGSGTDFTLTISSLEPEDFAVYYCQQRSYSITFGQGTRLEIK",binding result,[2],no binding
same,binding result,[3],no binding
"Z021 (MEX84_p4-23) (antibody, V domains shown) VH: QVQLQESGPGLVKPSETLSLTCTVSGGSIDTYYWSWIRQTPGKGLEWIGCFYYSVDNHFNPSLESRVTISVDTSKNQFSLKMTSMTASDTAVYYCARNQPGGRAFDYWGPGTLVTVSS VL: EIVLTQSPATLSLSPGQRATLSCRASQSVSNYFAWYQQKPGQAPRLLIYDTSKRATGTPARFSGSGSGTDFTLTISSLEPEDFAVYYCQERNNWPLTWTFGLGTKVEIK",binding result,[4],no binding
same,binding result,[5],no binding
same,binding result,[6],no binding
same,binding result,[7],no binding
same,binding result,[8],no binding
same,binding result,[9],no binding
"Z051 (BRA138_59) (antibody, V domains shown) VH: QVQLQESGPGLVKPSQTLSLTCTVSGVSISSGGYYYSWFRQLPGKGLEWIGHIYYTGNTHYNPSLRSRLTISVDTSKNQFSLKLSSVTAADTARYYCARAWCEYAAYCWFDPWGRGTLVTVSS VL: EIVLTQSPGTLSLSPGERATLSCRASQSVTSSYLAWYQHKPGQAPRLLIYGASSRAPGIPDRFSGSGSGTDFTLTISRLEPEDFAVYWCQQYGRSPFTFGQGTKLEIK",binding result,[2],no binding
same,binding result,[3],no binding
"Z053 (BRA138_65) (antibody, V domains shown) VH: QLQLQESGPGLVKPSETLSLTCTVSGGSISSYNYYWGWIRQPPGKGLEFIGSIYYTGSTYYNPSLRSRVTISVDTSKNQFSLKLTSVTAADTAVYYCARHGPGMGHNWYFDLWGRGTLVTVSS VL: EIVLTQSPATLSLSPGERATLSCRASQSISSYLAWYQQKPGQAPRLLIYDASNRAPGIPARFSGSGSGTDFTLTISSLEPEDFAVYYCQQRSTWLTFGGGTKVEIK",binding result,[2],no binding
same,binding result,[3],no binding
